Anti-infective test results gathered from many reports (values: NIAID ChemDB through PubChem).

All rows: whole-cell or culture tests; agent: HIV-1; endpoint: EC50

Blank or dashed fields: not listed here.

compound	strain	mutations	cells	result
CCNC(=O)OCCOCn1c(Sc2cccc(C)c2)c(C)c(=O)[nH]c1=O			MT-4	0.96 µM
Nc1ncnc2c1ncn2[C@H]1O[C@@H](CO)CC1(F)F	LAV		PBMC	>100 µM
Cc1cn([C@H]2S[C@H](CO)C[C@@H]2N=[N+]=[N-])c(=O)[nH]c1=O			MT-4	>100 µM
COc1ccccc1C(=O)Nc1ccccc1C(O)c1ccc([N+](=O)[O-])cc1	LAI		H9	34 µM
Cc1cn([C@H]2CC[C@@H](CO)[C@@H]2F)c(=O)[nH]c1=O	RF		MT-4	100 µg/mL
CCC(=O)OCCOCn1c(Sc2ccccc2)c(C)c(=O)[nH]c1=O			MT-4	7.1 µM
COc1ccccc1NC(=O)c1ccccc1C(O)c1ccc([N+](=O)[O-])cc1	LAI		MT-4	>100 µM
Cc1cc(C)cc(Sc2c(C)c(=O)[nH]c(=S)n2COCCO)c1			MT-4	<0.8 µM
Cc1ccccc1CNC(=O)[C@H]1N(C(=O)[C@@H](O)[C@H](CCc2ccccc2)NC(=O)O[C@H]2CCOC2)CSC1(C)C				0.02 µM
CC[n+]1c(-c2ccccc2)c2cc(N)ccc2c2ccc(N)cc21			HeLa	0.2 µM
CC(C)[C@H](NC(=O)[C@H](OCc1ccccc1)[C@H](O)[C@@H](O)[C@@H](OCc1ccccc1)C(=O)N[C@H]1c2ccccc2C[C@H]1O)C(=O)NCCF				0.17 µM
O=C1Nc2ccc(Cl)cc2[C@@](C#CC2CC2)(C(F)(F)F)[C@H]1OCc1ccncc1		RT-L100I K103N		<4.83 µM
COc1ccccc1NC(=O)c1ccccc1Oc1ccc(OCO)c(OCO)c1	LAI		H9	12.6 µM
CN=C1Cc2cc(S(=O)(=O)N(CC(C)C)C[C@@H](O)[C@H](Cc3ccccc3)NC(=O)OC3CO[C@H]4OC[C@H](OCc5ccccc5F)[C@@H]34)ccc2N1	IIIB			0.0007 µM
C=Cn1cc(C(=O)O)c(=O)c2ccc(N3CCN(c4ccccn4)CC3)cc21	IIIB		PBMC	0.61 µM
O=C1Nc2ccc(Cl)cc2[C@@](C#CC2CC2)(C(F)(F)F)[C@H]1OCc1ccccc1F	RF		MT-2	<0.14 µM
COc1ccccc1NC(=O)c1ccccc1C(O)c1ccc(C#N)cc1	LAI		H9	3.1 µM
CNc1ncnc2c1ncn2[C@H]1S[C@@H](CO)C[C@@H]1N=[N+]=[N-]			MT-4	>100 µM
CCN1c2cc(Br)cc3[nH]c(=S)n(c23)CCC1C			CEM + CEM-SS	3.86 µM
COc1ccc2[nH]c(C(=O)NCc3ccc(Cl)c(Oc4cc(Cl)cc(C#N)c4)c3)cc2c1	HXB2	RT-K103N	HeLa	>1 µM
CCOCn1c(Sc2cc(C)cc(C)c2)c(CC)c(=O)[nH]c1=O			MT-4	0.005 µM
Nc1ccc(CO[C@H]2C(=O)Nc3ccc(Cl)cc3[C@@]2(C#CC2CC2)C(F)(F)F)cc1	RF		MT-2	<0.021 µM
Nc1nc(=O)n([C@@H]2O[C@@H](CO)CC2(F)F)cc1I	LAV		PBMC	>100 µM
[N-]=[N+]=N[C@H]1C[C@H](CO)SC1n1cnc2c(N)ncnc21			MT-4	>100 µM
CCN1CC(C)Cn2c(=S)[nH]c3cc(Br)cc1c32			CEM + CEM-SS	5.18 µM
O=C1Nc2ccc(Cl)cc2[C@@](C#CC2CC2)(C(F)(F)F)[C@H]1OCc1cccnc1	RF		MT-2	<0.02 µM
Nn1cc[nH]c1=S	NL4-3			0.2–4 µg/mL
CCn1c(Sc2ccccc2)c(C)c(=O)[nH]c1=O			MT-4	4.3 µM
[N-]=[N+]=N[C@H]1C[C@@H](CO)S[C@H]1n1cnc2c(N)ncnc21			MT-4	>100 µM
Nc1ccn([C@@H]2O[C@@H](CO)CC2(F)F)c(=O)n1	LAV		PBMC	>100 µM
COC[C@@H](c1ccc(C(F)(F)F)cc1)N1CCN(C2(C)CCN(C(=O)c3c(C)ncnc3C)CC2)C[C@@H]1C	R14/S		PBMC	0.00021 µM
Cc1cccc(O)c1CNC(=O)[C@H]1N(C(=O)[C@@H](O)[C@H](CCc2ccccc2)NC(=O)c2cccc(O)c2C)CSC1(C)C				0.12 µM
Cc1cc(C)c(S(=O)(=O)OCC2OC3OC4C(CO)OC(OC5C(CO)OC(OC6C(CO)OC(OC7C(CO)OC(OC8C(CO)OC(OC9C(C[n+]%10ccccc%10)OC(OC2C(O)C3O)C(O)C9O)C(O)C8O)C(O)C7O)C(O)C6O)C(O)C5O)C(O)C4O)c(C)c1	KK-1(AIDS)		PBMC	382 µg/mL
Cc1ccccc1CNC(=O)[C@H]1N(C(=O)[C@@H](O)[C@H](CCc2ccccc2)NC(=O)O[C@H]2CO[C@H]3OCC[C@H]32)CSC1(C)C				0.009 µM
CC[n+]1c(-c2ccccc2)c2cc(NC(N)=O)ccc2c2ccc(N)cc21			HeLa	3 µM

Again, the opening 3 rows:

compound,strain,mutations,cells,result
CCNC(=O)OCCOCn1c(Sc2cccc(C)c2)c(C)c(=O)[nH]c1=O,,,MT-4,0.96 µM
Nc1ncnc2c1ncn2[C@H]1O[C@@H](CO)CC1(F)F,LAV,,PBMC,>100 µM
Cc1cn([C@H]2S[C@H](CO)C[C@@H]2N=[N+]=[N-])c(=O)[nH]c1=O,,,MT-4,>100 µM

Two numbers with a dash give a range or band. Conditions beyond the fields shown may differ between rows. ECn is the concentration giving n% inhibition of infection, replication or growth.